Anti-infective test results gathered from many reports (values: NIAID ChemDB through PubChem).

Common to all: whole-cell or culture tests; agent: Candida albicans; measure: MIC

Blank or dashed fields: not listed here.

compound | strain | value
CCCCCCCCCCNC1CCc2cc(O)ccc2C1 | - | 0.03125 µM
COc1ccc(-c2cc(=O)c3c(O)c(OC)c(O)cc3o2)cc1OC | - | >100 µg/mL
CCCCOC(=O)C1(O)CC(O)C(OC(=O)/C=C/c2ccc(O)c(OC)c2)C(O)C1 | ATCC 10231 | >1000 µg/mL
CN(C/C=C/C#CC(C)(C)C)Cc1cccc2ccccc12 | IEM 49/64 | 5 µg/mL
CCCCCCCCCCCCNC1CCc2cccc(OC)c2C1 | - | 2 µM
C[C@H]1[C@H]2CC[C@H]3[C@@H]4CC=C5C[C@@H](N(C)C)CC[C@]5(C)[C@H]4CC[C@]23CN1C | - | 31–62 µg/mL
C/C(=N\NC(=S)Nc1ccc(C(=O)O)cc1)c1ccccc1 | - | 3.1 µM
O=C(/C=C/c1ccc2ccccc2c1)c1ccccc1 | ATCC 10231 | >50 µg/mL
CCCCCSc1nc2ccc(N)cc2s1 | IEM 49/64 | 25 µg/mL
COc1ccc(NC(=S)NCCCC(=O)C(C)C)cc1 | ATCC2094 | 20 µg/mL
CN(C)c1ccc(/C=N/NC(=S)Nc2ccc(C(=O)NO)cc2)cc1 | - | 1.83 µM
C[C@@H]1[C@H](O)[C@@H](C)/C=C/C=C/CC/C=C/C=C/C=C/C=C/C(O[C@H]2O[C@H](C)[C@@H](O)[C@H](N)[C@@H]2O)CC2O[C@](O)(CC(O)C(O)CCC(O)CC(O)CC(O)CC(=O)O[C@H]1C)CC(O)C2C(=O)O | ATCC 10231 | 3.125 µg/mL
CC(=O)CCCNC(=S)Nc1ccc([N+](=O)[O-])cc1 | ATCC2094 | 11 µg/mL
C(=C\c1ccccc1)/CN(Cc1cccc2ccccc12)n1cncn1 | - | >200 µM
COc1cc2cc3c(c(-c4ccc5c(c4)OCO5)c2cc1OC)C(=O)OC3 | - | ≥4 µg/mL
CCCCC(=O)Oc1c(OC)ccc2cc3[n+](cc12)CCc1cc2c(cc1-3)OCO2 | ATCC 10231 | >500 µg/mL
CCCn1[se]c2ncccc2c1=O | - | 512 µg/mL
CCCCCCCCCNC1CCc2ccc(O)cc2C1 | - | 0.0625 µM
CCC(C)CC(C)CCCCCCCCC(=O)N[C@H]1C[C@@H](O)[C@@H](O)NC(=O)[C@@H]2[C@@H](O)CCN2C(=O)[C@H]([C@H](O)CC(N)=O)NC(=O)[C@H]([C@H](O)[C@@H](O)c2ccc(O)cc2)NC(=O)[C@@H]2C[C@@H](O)CN2C(=O)[C@H]([C@@H](C)O)NC1=O | - | 0.01 µg/mL
CC(C)C(=O)CCCNC(=S)NC1COOc2ccccc21 | ATCC2094 | 36 µg/mL
O=C(/C=C/c1ccccc1[N+](=O)[O-])c1ccccc1 | ATCC 10231 | >50 µg/mL
Cc1c(N2CC3CCCNC3C2)c(F)cn2c(=O)c(C(=O)O)cc(C3CC3)c12 | CCH442 | >100 µg/mL
COc1c(OC(C)=O)ccc2c1C(=O)N1CCc3cc4c(cc3C1C2)OCO4 | ATCC 10231 | >1000 µg/mL
COc1ccc(NC(=S)NCCC(=O)OC(C)C)cc1 | ATCC2094 | >128 µg/mL
Cc1c(N2CC[C@@H]([C@@H](C)N)C2)c(F)cn2c(=O)c(C(=O)O)cc(C3CC3)c12.Cl | CCH442 | >100 µg/mL
CCOC(=O)CCNC(=S)Nc1ccc(OC)c(OC)c1 | ATCC2094 | 101 µg/mL
COc1c(O)ccc2c1C(=O)N1CCc3cc4c(cc3C1C2)OCO4 | ATCC 10231 | >1000 µg/mL
Cc1c(N2C[C@@H]3C(N)[C@@H]3C2)c(F)cn2c(=O)c(C(=O)O)cc(C3CC3)c12.Cl | CCH442 | >100 µg/mL
Cc1ccc(/C=N/NC(=S)Nc2ccc(C(=O)O)cc2)cc1 | - | 2.36 µM
COc1cc(O)c2c(c1)C(=O)c1c(cc3c(c1O)-c1c(cc(C)c(C(=O)NC(CO)C(=O)O)c1O)[C@H](OC1OC(C)C(O)C(OC4OCC(O)C(O)C4O)C1O)C3O)C2=O | ATCC 32354 | 3.1 µg/mL
Cc1cccnc1-n1[se]c2ccccc2c1=O | - | >500 µg/mL
Cc1ccc(C2OC(=O)/C(=C/c3ccc(O)c(O)c3)C2C(=O)O)cc1O | ATCC 10231 | >100 µg/mL
Cc1ccc(/C=N/NC(=S)Nc2ccc(C(=O)NO)cc2)cc1 | - | 2.16 µM
C[C@H](CCC(=O)NCCNCCNC(=O)CC[C@@H](C)[C@H]1CCC2C3C(C[C@H](C)[C@@]21O)[C@@]1(C)CC[C@@H](O)CC1C[C@H]3O)[C@H]1CCC2C3C(C[C@H](C)[C@@]21O)[C@@]1(C)CC[C@@H](O)CC1C[C@H]3O | Isolate 5 | 0.011 µM
CCCCCCCCCCCCCC(=O)O[C@@H]1[C@@H](C)[C@@]2(O)[C@@H](C=C(CO)C[C@]3(O)C(=O)C(C)=C[C@@H]23)[C@@H]2C(C)(C)[C@]12OC(C)=O | ATCC 44859 | 16 µg/mL
CC(=O)N1CCN(c2ccc(OC[C@H]3CO[C@](Cn4ccnc4)(c4ccc(Cl)cc4Cl)O3)cc2)CC1 | Isogenic isolate 3 MDR1 (25X) | 0.004 µg/mL
CC(C)(C)c1ccc(CN(Cc2cccc3ccccc23)n2cnnc2)cc1 | - | >200 µM
CN(C/C=C/c1ccccc1)Cc1cccc2ccccc12 | Clinical isolate delta 63 | 50 µg/mL
O=c1ccc2ccc(O)cc2o1 | - | >100 µg/mL
O=C1C(c2ccccc2)=[N+]([O-])c2ccccc21 | - | 3.9 µg/mL
Oc1ccc2c(c1)CC(Nc1ccccc1)CC2 | - | 64 µM
C=C(C)CN1CC(OCC23C[C@@H]4[C@H](C)CC[C@H]4C4(C=O)CC2C=C(C(C)C)[C@@]34C(O)O)O[C@H](C)[C@@H](O)C1 | SANK51486 | 0.016 µg/mL
COc1ccc(/C=C/C(=O)c2ccc(OC)c(OC)c2)cc1OC | ATCC 10231 | >50 µg/mL
C[C@@H]1[C@H](O)[C@@H](C)/C=C/C=C/CC/C=C/C=C/C=C/C=C/C(O[C@H]2O[C@H](C)[C@@H](O)[C@H](N)[C@@H]2O)CC2O[C@](O)(CC(O)C(O)CCC(O)CC(O)CC(O)CC(=O)O[C@H]1C)CC(O)C2C(=O)O | ATCC 90028 | 0.5 µg/mL
CCC(C)n1ncn(-c2ccc(N3CCN(c4ccc(OC[C@H]5CO[C@](Cn6cncn6)(c6ccc(Cl)cc6Cl)O5)cc4)CC3)cc2)c1=O | IEM 49/64 | 10 µg/mL
Cc1c(N2C=NCC2)c(F)cn2c(=O)c(C(=O)O)cc(C3CC3)c12.Cl | CCH442 | >100 µg/mL
C[C@H]1[C@H](O)[C@@H](C)/C=C/C=C/C=C/C=C/C=C/C=C/C=C/[C@H](O[C@@H]2O[C@H](C)[C@@H](O)[C@H](N)[C@@H]2O)C[C@@H]2O[C@](O)(C[C@@H](O)C[C@@H](O)CC[C@H](O)[C@@H](O)C[C@@H](O)CC(=O)O[C@H]1C)C[C@H](O)[C@H]2C(=O)O | ATCC 90028 | 0.12 µg/mL
NC(=O)c1ncn([C@@H]2O[C@H](CO)[C@@H](O)[C@H]2O)c1Cl | - | 0.3 µM
COc1ccc(/C=N/NC(=S)Nc2ccc(C(=O)O)cc2)cc1 | - | 3.01 µM
CC(C)C(=O)CCCNC(=S)Nc1ccc([N+](=O)[O-])cc1 | ATCC2094 | 10 µg/mL
Cn1[se]c2c(ccc[n+]2C)c1=O | - | >500 µg/mL
Cc1c(N2CCN(C)CC2)c(F)cn2c(=O)c(C(=O)O)cc(C3CC3)c12 | CCH442 | >100 µg/mL
COc1ccc(C(=O)/C=C/c2cc3cc(OC)c(OC)cc3nc2Cl)cc1OC | ATCC 10231 | >50 µg/mL
CCOP(=O)(OCC)OC[C@@H](O)[C@@H](O)[C@H](O)[C@@H](N)CO | ATCC 10261 | 600 µg/mL
CCCCOC(=O)[C@]1(OC(C)=O)CC(OC(C)=O)[C@@H](OC(C)=O)C(OC(=O)/C=C/c2ccc(OC(C)=O)c(OC)c2)C1 | ATCC 10231 | >1000 µg/mL
O=C(O)c1ccc(NC(=S)N/N=C/c2ccccc2O)cc1 | - | 2.82 µM
COc1ccc(NC(=S)NCCC(=O)OC(C)C)cc1OC | ATCC2094 | 112 µg/mL
O=C1C(c2ccccn2)=[N+]([O-])c2ccccc21 | - | 7.81 µg/mL
C[n+]1cccc2c(=O)n(-c3ccccn3)[se]c21 | - | >500 µg/mL
O=C1C(c2ccc(Cl)cc2)=[N+]([O-])c2cc3c(cc21)OCO3 | - | 31.25 µg/mL
CCOC(=O)CCNC(=S)Nc1ccc(OC)cc1 | ATCC2094 | >128 µg/mL
COc1ccc2c(c1)C(=O)C(c1cccnc1)=[N+]2[O-] | - | 7.81 µg/mL
COc1ccc2c(c1)CC(NCc1ccccc1)CC2 | - | 30 µM

Two numbers with a dash give a range or band. Lines come from different laboratories, so protocols vary.